Pooled drug test results. Numbers come from NIAID ChemDB, via PubChem.

Shared fields: host cell toxicity; measure: CC50

Neighbouring rows are from separate reports. CCn: concentration that lowers growth or viability of the cells by n%. Blank or dashed fields: not listed here.

smiles,cell line,method,result
CCCCn1c(=O)c2ccccc2c2cc(C(O)(C(F)(F)F)C(F)(F)F)cc(OC)c21,Replicon cells,tetrazolium,22.3 µM
c1ccc(COc2ccccc2-c2ccc3ncnc(Nc4ccc(N5CCOCC5)cc4)c3c2)cc1,HUH 9B,-,>25 µM
O=c1ccn(-c2ccc(F)cc2)c2cc(-n3cncn3)ccc12,HPB-ALL,luminescence,120.3 µM
COc1cc2ncnc(Nc3ccc(N4CCOCC4)cc3)c2cc1OC,HUH 9B,-,>25 µM
CC(C)c1ccc2c(c1)c(=O)cc(-c1ccco1)n2C,HELA-OHIO,MTT,>20 µg/mL
C[C@H](Cc1ccc(OCCN2CCCC2)c(OCCN2CCCC2)c1)[C@@H](C)Cc1ccc(OCCN2CCCC2)c(OCCN2CCCC2)c1,COS,-,27.32 µM
C=Cn1ccc(=O)c2ccc(-c3ccncc3)cc21,HPB-ALL,luminescence,97.6 µM
COc1ccc(-c2c(C)c(=O)c3cc(OCC(C)C)c(C)cc3n2C)cc1C,HELA-OHIO,MTT,>4 µg/mL
CCCc1cc(=O)[nH]c(SC(C)C(=O)Nc2cccc(Cl)c2)n1,MT-2 human T-cells,MTT,60 µM
CCCCn1c(=O)c2cc(OC)ccc2c2cc(C(O)(C(F)(F)F)C(F)(F)F)c(OC)cc21,Replicon cells,tetrazolium,7.6 µM
CC(C)N(Cc1cccc(OCCCCCC(=O)OC(=O)O)c1)C(=O)c1ccc(-c2cccc(Cl)c2)cc1,BJ,-,>20 µM
CC1C(=O)N(C)c2ccc(C(=O)CN3CCN(c4noc5ccccc45)CC3)cc21,RAW 264.7,MTT,110 µg/mL
C[C@H](Cc1ccc(OC(=O)N2CCCCC2)c(OC(=O)N2CCCCC2)c1)[C@@H](C)Cc1ccc(OC(=O)N2CCCCC2)c(OC(=O)N2CCCCC2)c1,COS,-,5.53 µM
CCOC(=O)[C@@]1(C)CC[C@]2(C)CC[C@]3(C)C(=CC(=O)[C@@H]4[C@@]5(C)CC/C(=N\OCc6cccc(Br)c6)C(C)(C)[C@@H]5CC[C@]43C)[C@@H]2C1,CT26,MTT,>100 µM
CCCCn1c(=O)c2ccccc2c2cc(C(O)(C(F)(F)F)C(F)(F)F)c(C)cc21,Replicon cells,tetrazolium,28.9 µM
CCOC(=O)[C@@]1(C)CC[C@]2(C)CC[C@]3(C)C(=CC(=O)[C@@H]4[C@@]5(C)CC/C(=N\OCC6(C)COC6)C(C)(C)[C@@H]5CC[C@]43C)[C@@H]2C1,K562,MTT,55.46 µM
CN1C(=O)Cc2cc(C(=O)CN3CCN(c4noc5ccccc45)CC3)ccc21,RAW 264.7,MTT,70.18 µg/mL
C[C@H](Cc1ccc(OCCN2CCOCC2)c(OCCN2CCOCC2)c1)[C@@H](C)Cc1ccc(OCCN2CCOCC2)c(OCCN2CCOCC2)c1,COS,-,19.71 µM
CCOC(=O)CCCCCOc1cccc(CN(C(=O)c2ccc(-c3cccc(OC)c3)cc2)C(C)C)c1,RAJI,-,>20 µM
CN1C(=O)Cc2cc(C(=O)CN3CCN(c4ccccn4)CC3)ccc21,RAW 264.7,MTT,130 µg/mL
OCc1ccc(-c2ccc3ncnc(Nc4ccc(N5CCOCC5)cc4)c3c2)o1,HUH 9B,-,>25 µM
N#Cc1nc(Cc2cccc3ccccc23)oc1NCC1CCCO1,MT-2 human T-cells,MTT,37 µM
O=c1ccn(-c2ccc(F)cc2)c2cc(-n3cccc3)ccc12,HPB-ALL,luminescence,37.5 µM
CC(C)N(Cc1ccc(OCC(=O)O)cc1)C(=O)c1ccc(-c2ccc3c(c2)OCO3)cc1,BJ,-,>20 µM
Nc1ncnc2c1c(I)cn2COCCO,BSC-1,-,>100 µM
Cn1cc(NC(=O)Nc2cc(C(=O)Nc3cc(C(=O)Nc4ccc(S(=O)(=O)O)c5cc(S(=O)(=O)O)ccc45)n(C)c3)n(C)c2)cc1C(=O)Nc1cc(C(=O)Nc2ccc(S(=O)(=O)O)c3cc(S(=O)(=O)O)ccc23)n(C)c1,Monocytes MIP-1alpha,-,<200 µM
CC1C(=O)N(C)c2ccc(C(=O)CN3CCN(c4noc5cc(Cl)ccc45)CC3)cc21,RAW 264.7,MTT,53.84 µg/mL
COc1ccc(CNC(=O)c2ccc3ncnc(Nc4ccc(N5CCOCC5)cc4)c3c2)cc1,HUH 9B,-,>25 µM
[N-]=[N+]=NC[C@H](O)c1ccc2c(c1)CCO2,HepG2,-,>20 µM
CCCc1ccc2c(c1)c(=O)c(C)c(-c1ccccc1)n2CC,HELA-OHIO,MTT,5.8 µg/mL
CCCCn1c(=O)c2cc(OC)ccc2c2cc(C(O)(C(F)(F)F)C(F)(F)F)cc(OC)c21,Replicon cells,tetrazolium,11.1 µM
CNCc1ccc(-c2ccc3ncnc(Nc4ccc(N5CCOCC5)cc4)c3c2)o1,HUH 9B,-,>25 µM
Cc1ccc(-n2c(-c3ccccc3)c(C)c(=O)c3cc(C(C)C)ccc32)cc1,HELA-OHIO,MTT,>2.5 µg/mL
Cc1noc(C)c1-c1ccc2c(c1)N(c1cc(N)c(F)cc1F)CCC2=O,HPB-ALL,luminescence,26.2 µM
CC(=O)Nc1cccc(-c2ccc3ncnc(Nc4ccc(N5CCOCC5)cc4)c3c2)c1,HUH 9B,-,>25 µM
CCOC(=O)[C@@]1(C)CC[C@]2(C)CC[C@]3(C)C(=CC(=O)[C@@H]4[C@@]5(C)CC/C(=N\OCc6cccc(Cl)c6)C(C)(C)[C@@H]5CC[C@]43C)[C@@H]2C1,K562,MTT,66.5 µM
COc1c(OCC(C)C)ccc2c1c(=O)c(C)c(-c1ccccc1)n2C,HELA-OHIO,MTT,>10 µg/mL
CCOC(=O)[C@@]1(C)CC[C@]2(C)CC[C@]3(C)C(=CC(=O)[C@@H]4[C@@]5(C)CC/C(=N\OCc6cc(C)cc(C)c6)C(C)(C)[C@@H]5CC[C@]43C)[C@@H]2C1,CT26,MTT,33.42 µM
CC(C)N(Cc1cccc(OCCCCCC(=O)OC(=O)O)c1)C(=O)c1ccc(-c2ccc3ccccc3c2)cc1,BJ,-,>20 µM
CCCCn1c(=O)c2cc3c(cc2c2cc(C(O)(C(F)(F)F)C(F)(F)F)c4c(c21)OCO4)OCO3,Replicon cells,tetrazolium,15.9 µM
CCCN(Cc1cccc(OCCCCCC(=O)O)c1)C(=O)c1ccc(-c2ccc3c(c2)OCO3)cc1,HEK 293,-,>20 µM
Cc1cc2c(c(C)c1OCC(C)C)c(=O)c(C)c(-c1ccccc1)n2C,HeLa S3,MTT,>5 µg/mL
Cc1ccc(OCCn2ccc(=O)[nH]c2=O)c(Cc2ccccc2)c1,MT-2 human T-cells,MTT,72 µM
O=C(CSc1ncccc1C(=O)O)c1ccc(O)c(O)c1,HOS,-,59 µM
Oc1cccc(Nc2ncnc3sc(-c4ccccc4)cc23)c1,MT-2 human T-cells,MTT,17 µM
CCN1C(=O)Cc2cc(C(=O)CN3CCN(c4ccc([N+](=O)[O-])cc4)CC3)ccc21,RAW 264.7,MTT,61.88 µg/mL
COc1cc2c(=O)c(C)c(-c3ccccc3)n(C)c2cc1C(C)C,HeLa S3,MTT,>10 µg/mL